PubChem BioAssay AID624099, ICCB-Longwood – 2012
Screen: 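Human genes that papillomavirus E2 requires to repress the HPV18 LCR promoter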 (primary screen). Cell system: human C33A cervical carcinoma cells (HPV-negative) stably expressing BPV1 E2 and an HPV18 LCR luciferase reporter. Knock-down reagent: siRNA pool against human genes, 40 nM. Timing: 72 h. Measured: 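Per-well luciferase luminescence, z-scored on each plate against the plate mean and SD with control wells left out, then averaged across three replicate plates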. Scale: mean z-score and z-score: higher = stronger reporter signal, weaker E2 silencing. Call rule: 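Hit if mean z-score reaches 2 and two or more of three replicate z-scores also reach 2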.
Shown is a random part of about 21,000 deposited reagents. 497 of them (2.4%) count as active. 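Higher z means weaker E2 silencing; only reporter increases were scored, and knock-downs that hurt cell survival may mask genuine repressor factors.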 Unmarked entries are inactive. The numbers tell different reagents against one gene apart. Reagent sequences are not shown.

| gene symbol | reagent no. | mean z-score | z-score, replicate A | z-score, replicate B | z-score, replicate C |
| --- | --- | --- | --- | --- | --- |
| ANKRD53 | 1 | 0.43 | 0.79 | 0.18 | 0.3 |
| CNKSR3 | 1 | -0.42 | 0.07 | -0.55 | -0.77 |
| SLC22A23 | 1 | 0.75 | 1.15 | 0.62 | 0.49 |
| SLC22A23 | 2 | -0.08 | 0.46 | -0.4 | -0.32 |
| NXPH3 | 1 | -0.54 | -0.7 | -0.55 | -0.38 |
| CPT1C | 1 | 0.2 | 0.34 | 0.04 | 0.22 |
| ZNF536 | 1 | -1.17 | -1.36 | -1.19 | -0.97 |
| NOP10 | 1 | 0.28 | 0.12 | 0.45 | 0.26 |
| ZWINT | 1 | 0.23 | 1.2 | 0.08 | -0.58 |
| NPAS1 | 1 | -0.63 | -0.47 | -0.78 | -0.64 |
| ADORA2A | 1 | 0.78 | 0.76 | 0.75 | 0.83 |
| BICC1 | 1 | -0.44 | -0.81 | -0.3 | -0.22 |
| TMEM86A | 1 | 0.87 | 0.9 | 1.22 | 0.49 |
| VCF2 | 1 | -0.88 | -0.85 | -1.01 | -0.79 |
| ABLIM2 | 1 | 0.47 | 0.68 | 0.51 | 0.21 |
| NHLRC4 | 1 | 0.37 | 0.38 | 0.61 | 0.11 |
| ERI1 | 1 | -0.48 | -0.62 | -0.15 | -0.66 |
| LOC401606 (retired record) | 1 | -0.33 | -0.07 | -0.42 | -0.52 |
| MKNK2 | 1 | -1.02 | -1.12 | -0.75 | -1.21 |
| SCT | 1 | 2.51 (active) | 3.01 | 2.06 | 2.46 |
| TBC1D12 | 1 | -0.98 | -0.87 | -1.14 | -0.93 |
| TPR | 1 | 0.74 | 0.51 | 0.73 | 0.99 |
| RRN3 | 1 | 0.49 | 0.3 | 0.43 | 0.76 |
| GPR62 | 1 | -1.54 | -1.56 | -1.2 | -1.86 |
| CIRSR | 1 | -0.18 | -0.32 | -0.26 | 0.04 |
| PPP1R13B | 1 | -0.12 | -0.16 | -0.02 | -0.17 |
| AGAP4 | 1 | -0.3 | -0.21 | -0.11 | -0.58 |
| HMHB1 | 1 | 0.04 | -0.14 | 0.07 | 0.19 |
| LOC387697 (retired record) | 1 | 0.1 | 0.06 | 0.02 | 0.22 |
| MINPP1 | 1 | 0.59 | 0.78 | 0.44 | 0.55 |
| SCFD2 | 1 | -2.16 | -2.19 | -2.19 | -2.09 |

Looked up above.
Under “z-score, replicate C”, CNKSR3 reads -0.77
BICC1, z-score, replicate B = -0.3
Under “z-score, replicate C”, MKNK2 has -1.21
SCFD2, z-score, replicate A: -2.19
Under “z-score, replicate B”, ERI1 has -0.15

The list goes on.
| gene symbol | reagent no. | mean z-score | z-score, replicate A | z-score, replicate B | z-score, replicate C |
| --- | --- | --- | --- | --- | --- |
| BLOC1S6 | 1 | -0.59 | -0.54 | -0.48 | -0.75 |
| ELOVL7 | 1 | 1.3 | 1.51 | 1.53 | 0.85 |
| CDC14B | 1 | -0.04 | -0.17 | 0.06 | 0 |
| ZNRF3 | 1 | -0.72 | -0.72 | -1.01 | -0.45 |
| RPS6KB2 | 1 | -0.29 | -0.18 | -0.36 | -0.33 |
| TSPOAP1 | 1 | -0.01 | 0.03 | -0.06 | -0.01 |
| DEGS1 | 1 | 0.92 | 1.46 | 0.45 | 0.86 |
| GH2 | 1 | -0.52 | -0.59 | -0.71 | -0.25 |
| VAMP3 | 1 | -0.52 | -0.6 | -0.36 | -0.6 |
| KLHL36 | 1 | -0.46 | -0.67 | -0.39 | -0.32 |
| KIAA2013 | 1 | 0.42 | 0.63 | 0.53 | 0.12 |
| RAB11FIP3 | 1 | 0.48 | 0.4 | 0.43 | 0.61 |
| CDKN1C | 1 | 1.01 | 0.92 | 0.6 | 1.51 |
| GGTLC1 | 1 | 1.74 | 1.24 | 1.83 | 2.16 |
| ANKRD45 | 1 | -0.06 | -0.33 | 0.23 | -0.08 |
| ASCL4 | 1 | -0.06 | -0.01 | -0.15 | -0.03 |
| MAP4K3 | 1 | -1.47 | -1.55 | -1.48 | -1.38 |
| TSHZ1 | 1 | 0.46 | 0.73 | 0.43 | 0.23 |
| SMARCA1 | 1 | -0.59 | -0.72 | -0.44 | -0.6 |
| TTLL6 | 1 | -0.35 | -0.56 | -0.46 | -0.01 |
| SLC6A5 | 1 | 0.85 | 1.35 | 0.31 | 0.88 |
| TBX22 | 1 | -0.66 | -0.75 | -0.65 | -0.57 |
| MICOS13 | 1 | 1.53 | 1.58 | 1.26 | 1.74 |
| MPND | 1 | 1.27 | 1.45 | 1.44 | 0.9 |
| SLC44A2 | 1 | -1.39 | -1.42 | -1.37 | -1.38 |
| EPHB2 | 1 | -0.24 | 0.12 | -0.38 | -0.48 |
